Reference: PubChem BioAssay AID1259414 (Drosophila RNAi Screening Center, 2018)
The deposit covers about 24,000 reagents; this is an unselected part of those that have a named target and a result. Of all reagents, about 1,210 (5%) are marked active. 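Inactive calls also include excluded dsRNAs with several or no targets, genes unexpressed in JW18, and well A1, regardless of score.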 Reagents against one gene are numbered here. No sequences are given here.

- Test: 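Genome-wide screen for host control of endosymbiont load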 (primary screen)
- System: Drosophila JW18 cells infected with Wolbachia
- Reagents: long dsRNA against Drosophila genes, 0.25 µg dsRNA per well of a 384-well plate
- Duration: 5 days
- Treatment: cells persistently infected with Wolbachia before knock-down; no added drug
- Read-out: 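Imaged fluorescence in situ signal for Wolbachia 23S rRNA per DAPI-counted host cell, given as a robust z-score within each plate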
- Reading the numbers: Wolbachia per cell robust z: higher = more Wolbachia per host cell than the plate typical
- Hit rule: 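Active if absolute robust z reaches 1.5 in two or more of three replicates, leaving out multi- or no-target dsRNAs, genes unexpressed in JW18 and A1 wells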

With CG13807 #1, how do the results read?
Wolbachia per cell robust z, rep 1: -0.527; Wolbachia per cell robust z, rep 2: -0.821; Wolbachia per cell robust z, rep 3: -0.834; activity call: inactive

For CG13807 #2, what does the deposit list?
Wolbachia per cell robust z, rep 1: 0.724; Wolbachia per cell robust z, rep 2: -0.973; Wolbachia per cell robust z, rep 3: 1.08; activity call: inactive

What did the screen give for snk?
Wolbachia per cell robust z, rep 1: -1.92; Wolbachia per cell robust z, rep 2: 0.302; Wolbachia per cell robust z, rep 3: -0.0339; activity call: inactive

For CG32278, what was measured?
Wolbachia per cell robust z, rep 1: 1.02; Wolbachia per cell robust z, rep 2: 1.16; Wolbachia per cell robust z, rep 3: 1.08; activity call: inactive

What did the screen give for Octalpha2R #1?
Wolbachia per cell robust z, rep 1: -1.23; Wolbachia per cell robust z, rep 2: -7.4; Wolbachia per cell robust z, rep 3: -2.92; activity call: inactive

What did the screen give for Octalpha2R #2?
Wolbachia per cell robust z, rep 1: 0.223; Wolbachia per cell robust z, rep 2: 0.41; Wolbachia per cell robust z, rep 3: -1.51; activity call: inactive

For CG9752, what was measured?
Wolbachia per cell robust z, rep 1: 0.684; Wolbachia per cell robust z, rep 2: 0.968; Wolbachia per cell robust z, rep 3: 0.156; activity call: inactive

What is on record for CG5726 #1?
Wolbachia per cell robust z, rep 1: -0.641; Wolbachia per cell robust z, rep 2: 0.214; Wolbachia per cell robust z, rep 3: -7.17; activity call: inactive

With CG5726 #2, how do the results read?
Wolbachia per cell robust z, rep 1: -0.557; Wolbachia per cell robust z, rep 2: -0.997; Wolbachia per cell robust z, rep 3: -0.557; activity call: inactive

For br #1, how do the results read?
Wolbachia per cell robust z, rep 1: 0.589; Wolbachia per cell robust z, rep 2: 0.646; Wolbachia per cell robust z, rep 3: 0.0363; activity call: inactive

For br #2, what does the deposit list?
Wolbachia per cell robust z, rep 1: 0.864; Wolbachia per cell robust z, rep 2: -1.4; Wolbachia per cell robust z, rep 3: -0.876; activity call: inactive

For br #3, how do the results read?
Wolbachia per cell robust z, rep 1: -1.37; Wolbachia per cell robust z, rep 2: 0.13; Wolbachia per cell robust z, rep 3: -0.226; activity call: inactive

For br #4, what does the deposit list?
Wolbachia per cell robust z, rep 1: 0.194; Wolbachia per cell robust z, rep 2: 0.863; Wolbachia per cell robust z, rep 3: -0.333; activity call: inactive

What is on record for br #5?
Wolbachia per cell robust z, rep 1: -0.795; Wolbachia per cell robust z, rep 2: 1.22; Wolbachia per cell robust z, rep 3: -0.714; activity call: inactive

For ScsbetaA #1, what does the deposit list?
Wolbachia per cell robust z, rep 1: 0.366; Wolbachia per cell robust z, rep 2: 0.502; Wolbachia per cell robust z, rep 3: 0.993; activity call: inactive

With ScsbetaA #2, what does the deposit list?
Wolbachia per cell robust z, rep 1: -0.00923; Wolbachia per cell robust z, rep 2: -0.643; Wolbachia per cell robust z, rep 3: -1.46; activity call: inactive
